PubChem BioAssay AID504761 – Drosophila RNAi Screening Center | 2011

Assay: 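Insect host genes that dengue virus relies on to spread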 (primary screen)
System: D.Mel-2 cells from Drosophila
Reagents: long dsRNA against Drosophila genes
Conditions: infection with dengue virus type 2; dose and infection time not stated
Detection: 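Cells stained for dengue envelope protein and imaged; percent of infected cells per well on duplicate plates, ranked by infection, with stained nuclei counted for cell number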
Reading the numbers: infection score: higher = more virus-infected cells
Call rule: 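Low infection ranks in the two replicates (chance level up to 0.065) followed by a retest with a 1.5-fold or larger significant decrease, p below 0.05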
Meaning of the calls: active = confirmed: knock-down lowers infection; inactive = not picked or not confirmed
The screen tested about 22,000 reagents; below is an unselected part of those that have a named target and a result. Over the whole deposit, 116 (0.52%) got an active call. 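Calls depend on retest data that are not deposited; infection was ranked per plate without normalising between plates; the unit of the infection score is not given.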 Reagents against one gene are numbered here. A plus sign joins genes that one reagent is predicted to hit. Further read-outs or replicates are left out here. Not stated in the record: the amount of reagent, the time to read-out.

no.	Target gene	reagent no.	infection score, replicate 1	infection score, replicate 2	Call
1	Or33a (Odorant receptor 33a)	1	7.29	7.53	inactive
2	Mctp (Multiple C2 domain and transmembrane region protein)	1	2.81	4.21	inactive
3	Mctp (Multiple C2 domain and transmembrane region protein)	2	1.7	22.6	inactive
4	Mctp (Multiple C2 domain and transmembrane region protein)	3	4.72	1.49	inactive
5	Mctp (Multiple C2 domain and transmembrane region protein)	4	24.9	27.6	inactive
6	tn (thin)	1	3.02	2	inactive
7	tn (thin)	2	5.55	7.42	inactive
8	tn (thin)	3	11	4.85	inactive
9	fd3F (retired record)	1	1.22	4.33	inactive
10	Tsp42Eq (Tetraspanin 42Eq)	1	8.33	10.8	inactive
11	numb	1	20.1	15.1	inactive
12	spn-A (spindle A)	1	7.38	2.31	inactive
13	PIG-S (Phosphatidylinositol glycan anchor biosynthesis class S)	1	5.69		inactive
14	PIG-S (Phosphatidylinositol glycan anchor biosynthesis class S)	2	1.35	8.89	inactive
15	PIG-S (Phosphatidylinositol glycan anchor biosynthesis class S)	3	6.69	21.9	inactive
16	NaPi-T (Na[+]-dependent inorganic phosphate cotransporter)	1	17.4	19.5	inactive
17	NaPi-T (Na[+]-dependent inorganic phosphate cotransporter)	2	3.59	1.81	inactive
18	CG34436	1	0.7	1.39	inactive
19	CG7739	1	6.99	11.9	inactive
20	Gr21a (Gustatory receptor 21a)	1	1.76	1.52	inactive
21	Gr21a (Gustatory receptor 21a)	2		0.32	inactive
22	Rsph3 (Radial spoke head protein 3)	1	14.4	7.59	inactive
23	Rsph3 (Radial spoke head protein 3)	2	5.2	9.74	inactive
24	Rsph3 (Radial spoke head protein 3)	3	26.5	16.7	inactive
25	CG17806	1	9.72	18.4	inactive
26	CG2104	1	2.54	3.53	inactive
27	Eaf6 (Esa1-associated factor 6)	1	3.84	26.9	inactive
28	CG3594	1	2.03	18.3	inactive
29	CG3594	2	12	1.44	inactive
30	CG3744	1	11.2		inactive
31	CG3744	2	15.8	7.16	inactive
32	betaNACtes2 (Nascent-associated complex beta-subunit-like, testis 2)	1	5.12	7.34	inactive
33	bisc (biscotti)	1	6.2	11	inactive
34	bisc (biscotti)	2	12.2	15	inactive
35	PGRP-LF (Peptidoglycan recognition protein LF)	1	16.9	6.28	inactive
36	CG31446	1	4.17	0.92	inactive
37	CG14546	1	7.77	2.96	inactive
38	CG17271	1	6.02	18.2	inactive
39	CG17271	2	3.73	10.8	inactive
40	CG17271	3	4.18	1.07	inactive
41	skl (sickle)	1	3.41	6.7	inactive
42	mahj (mahjong)	1	13.9	28.6	inactive
43	SPARC (Secreted protein, acidic, cysteine-rich)	1	4.54	10.1	inactive
44	SPARC (Secreted protein, acidic, cysteine-rich)	2	1.35	1.56	inactive
45	CG15073	1	4.71	0.87	inactive
46	CG15073	2	4.89	22.7	inactive
47	CG12865 (retired record)	1	15.4	3.46	inactive
48	CG12865 (retired record)	2	5.79	4.73	inactive
49	Nt5b (5' nucleotidase B)	1	0.95	6.37	inactive
50	Nt5b (5' nucleotidase B)	2	26.9	7.55	inactive
51	Nt5b (5' nucleotidase B)	3	2.67	2.34	inactive
52	Nt5b (5' nucleotidase B)	4	8.46	3.39	inactive
53	Nt5b (5' nucleotidase B)	5	16.3	11.2	inactive
54	Rab9Db + Rab9Fa	1	2.38	6.89	inactive
55	rg (rugose)	1	1.16	5.15	inactive
56	rg (rugose)	2	2.82	1.2	inactive
57	rg (rugose)	3	11	1.23	inactive
58	CG7381	1	15.5	10.8	inactive
59	CG7381	2	13.1	28	inactive
